This experiment concerns the target SARS-CoV-2 PT RBD (residues 319-541) (SARS-CoV-2, UniProt P0DTC2 319-541). Kind of experiment: SPR. A general note: In SPR one partner is held on a chip, and binding of the other changes the refractive index at the surface.

B1: rabbit ACE2 Q34H (protein)
chain: QSTIEELAKTFLEKFNHEAEDLSYQSALASWDYNTNITEENVQKMNDAEAKWSAFYEEQSKLAKTYPSQEVQNLTVKRQLQALQQSGSSALSADKSKQLNTILSTMSTIYSTGKVCNQSNPQECFLLEPGLDEIMAKSTDYNERLWAWEGWRSVVGKQLRPLYEEYVVLKNEMARANNYEDYGDYWRADYEAEGADGYDYSRSQLIDDVERTFSEIKPLYEQLHAFVRTKLMDAYPSRISPTGCLPAHLLGDMWGRFWTNLYSLTVPFGQKPNIDVTDTMVNQGWDAERIFKEAEKFFVSVGLPSMTQGFWENSMLTEPGDGRKVVCHPTAWDLGKGDFRIKMCTKVTMDNFLTAHHEMGHIQYDMAYATQPFLLRNGANEGFHEAVGEIMSLSAATPEHLKSIGLLPYDFHEDNETEINFLLKQALTIVGTLPFTYMLEKWRWMVFKGEIPKEQWMQKWWEMKREIVGVVEPMPHDETYCDPAALFHVANDYSFIRYYTRTIYQFQFQEALCQAAQHEGPLHKCDISNSTEAGQKLLNMLRLGRSEPWTLALENVVGAKNMDVRPLLNYFEPLFTWLKEQNRNSFVGWSTEWTPYAD
As usually defined, the Kd is a measure of binding affinity in units of concentration. A high value points to weaker binding. B1: binding was put at a Kd of 113 nM.
